In patent US8039468B2, “Method of inhibition of respiratory depression using positive allosteric AMPA receptor modulators” (The Governors of the University of Alberta, priority 2006, dated 2011):

Test system: Sprague-Dawley rat
Assay: Whole-body plethysmography of frequency and depth of breathing in unrestrained rats
Settings: for behaviour or arousal state (spontaneous movement, agitation, sedation): P17 rat after fentanyl 130 μg/kg, Compound A 33 mg/kg or CX614 2.5 mg/kg i.p.
[1] = P17 rat, fentanyl 130 μg/kg i.p., then Compound A 33 mg/kg or CX614 2.5 mg/kg

Structure (SMILES): O=C(c1ccc2nonc2c1)N1CCOCC1 [Compound A, 4-(benzofurazan-5-ylcarbonyl)morpholine]
- behaviour or arousal state (spontaneous movement, agitation, sedation): did not result in any obvious effect
- behaviour or arousal state (spontaneous movement, agitation, sedation) (listed as 4-(benzofurazan-5-ylcarbonyl)morpholine): without any obvious effect
- fentanyl-induced respiratory depression [1]: reversed
- time to reversal of fentanyl-induced respiratory depression [1]: within five-minutes
- time to reversal of fentanyl-induced respiratory depression (P17 rat, fentanyl 130 μg/kg i.p., then Compound A 33 mg/kg or CX614 2.5 mg/kg, listed as 4-(benzofurazan-5-ylcarbonyl)morpholine): ≤ 5 min
- fentanyl-induced respiratory depression (separate experiment, doses as low as 20 mg/kg): partially alleviated
